Measurements published in paper PMC11794875, “Molecular basis for azetidine-2-carboxylic acid biosynthesis” (Nature Communications, 2025).

Test system: C[S+](CC[C@H](N)C(=O)O)C[C@H]1O[C@@H](n2cnc3c(N)ncnc32)[C@H](O)[C@@H]1O
Assay: purified protein
Details: 100 mM Tris-HCl, pH 8.0, 30 °C

Substance | Km [µM] | kcat [s⁻¹]
AzeJ (Pseudomonas aeruginosa PAO1; Y175F) | 500 ± 350 | 0.0167 ± 0.0033
AzeJ (Pseudomonas aeruginosa PAO1; F134Y) | 520 ± 250 | 0.183 ± 0.0267
